{"source": "patent US8318804B2", "about": "(priority 2007, dated 2012)", "system": "A/WY/03/2003 (H3N2) influenza virus", "conditions": "10 μg/mL; FIG. 16; MDCK cells, 72 h"}
{"substance": "ethyl-(2R/S, 1′R,4′S)-2-(4′-hydroxy-2′-cyclopenten-1′-yl)-2-nitroacetate", "values": [{"measurement": "protection from the selected influenza strain (cell viability assay)", "result": 75, "unit": "%"}]}
